The assay addresses His-EspCΔ430-448 (enteropathogenic Escherichia coli (EPEC), UniProt Q9EZE7 55-1032, Δ430-448). The assay can be described thus: far-Western, overlay or dot blot.

B1: His-EspA (natural protein)
chain: MDTSTTASVASANASTSTSMAYDLGSMSKDDVIDLFNKLGVFQAAILMFAYMYQAQSDLSIAKFADMNEASKESTTAQKMANLVDAKIADVQSSSDKNAKAQLPDEVISYINDPRNDITISGIDNINAQLGAGDLQTVKAAISAKANNLTTTVNNSQLEIQQMSNTLNLLTSARSDMQSLQYRTISGISLGK
notes: also called EPEC secreted protein A
With B1, the binding result is on record as “binds”.

(Values after article PMC5371411 (mBio, 2017).)
